Human monoclonal antibodies against the spike receptor-binding domain (heavy:light variable regions). IC50 against pseudoviruses bearing the spike of naturally observed variants; lower = stronger; >10 µg/ml means not reached at the top dose. No active / inactive call. The stated detection limit is 0.0005 µg/ml; values near or below 0.001 µg/ml lie at the floor of the assay.
Experiments:
Test in all cases: pseudovirus neutralization IC50; higher = weaker neutralization
[1] = target: SARS-CoV-2 Omicron BA.1 spike pseudovirus
Experimental: (§1)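 Single-round VSV luciferase pseudovirus mixed with antibody dilutions for 1 h and put on Huh-7 cells for about a day; IC50 from the dose curve.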

[2] = target: SARS-CoV-2 Omicron BA.2 spike pseudovirus
Experimental: as §1

[3] = target: SARS-CoV-2 Omicron BA.2.75 spike pseudovirus
Experimental: as §1

[4] = target: SARS-CoV-2 Omicron BA.5 spike pseudovirus
Experimental: as §1

[5] = target: SARS-CoV-2 Omicron BQ.1.1 spike pseudovirus
Experimental: as §1

[6] = target: SARS-CoV-2 Omicron XBB spike pseudovirus
Experimental: as §1

[7] = target: SARS-CoV-2 early D614G spike pseudovirus
Experimental: as §1

Row | Binder | pseudovirus neutralization IC50 [1] [µg/mL] | pseudovirus neutralization IC50 [2] [µg/mL] | pseudovirus neutralization IC50 [3] [µg/mL] | pseudovirus neutralization IC50 [4] [µg/mL] | pseudovirus neutralization IC50 [5] [µg/mL] | pseudovirus neutralization IC50 [6] [µg/mL] | pseudovirus neutralization IC50 [7] [µg/mL]
1 | BD57-0292 (protein) chain 1: QVQLQESGPGLVKPSETVSLTCTVSGGSISNYYWTWIRQPPGKGLEWIGHLYYSGYINYSPSLKSRVTMSVDTSKNQFSLKLSSVTAADTAVYYCAGLAVTMVRGVISPRYYDYMDVWGKGTTVTVSS chain 2: DIVMTQSPDSLLVSLGERATITCKSSQNILYSSNNKNYLAWYQQKPGQPPKLLIYWASTRESGVPDRFSGSGSGTDFTLTISSLQAEDVAVYYCQQYYSSPYTFGPGTKVGIK | > 10 | > 10 | > 10 | > 10 | > 10 | > 10 | > 10
2 | BD57-0312 (protein) chain 1: EVQLVESGGGLVQPGGSLRLSCAASGFKFDDYAMHWVRQAPGKGLEWVSGISWDSGGLGYADSVKGRFTISRDNAKNSLYLQMNSLRSEDTAFYYCAKETSTSCYTACGSLDNWGQGALVTVSS chain 2: QSALTQPASVSGSPGQSITISCTGTSRDVGNYNLVSWYQQHPGKAPKLMIYEVSKRPSGVSSRFSGSKSGNTASLTISGLQAEDEADYFCWSYAGFSTLLIGGGTRVTVL | 4.46 | 6.9 | 7.47 | 9.31 | 8.36 | 5.74 | 3.58
3 | BD57-0334 (protein) chain 1: QITLRESGPTLVKPTQTLTLTCTVSGFSLGSAGVGVGWIRQPPGKALEWLALIYRDDDKRYSPSLNTRLTITKDTSKNLVVLTMADVDPLDTATYYCAQSIYGTNFFGPWGQGTLVIVSS chain 2: EIVLTQSPATLSLSPGERATLSCRASQGAISYLAWYQQRPGQAPRLLIYDSSKRATGIPARFSGSGSGTDFTLTISSLEPEDFAVYYCQLRSNWPPMYTFGQGTKLEIK | > 10 | > 10 | > 10 | > 10 | > 10 | > 10 | > 10
4 | BD57-0337 (protein) chain 1: QVQLRQWGAGLLKPSETLSLTCDVYGGSFSGYFWSWIRQPPGKGLEWIGDINHSGSTNYNPSLKSRVTISEDTSKHQFSLKLTSVTAADTAIYYCARGGWVYYGSQILPFDYWGQGTLVTVSS chain 2: DIVMTQSPDSLAGSLGERATINCKSSQSVLYSTNNKNYLAWYQQKPGQPPKLLFYWASTRESGVPDRFSGSGSGTDFTLTISSLQAEDVAIYYCQQYYSTPLTFGGGTKVEIK | 0.454 | 1.09 | 0.749 | 0.766 | 3.01 | 2.11 | 0.884
5 | BD57-0285 (protein) chain 1: QVHLVESGGGVVQPGRSLRLSCAASGFTFSSYALHWVRQAPGKGLEWLAVISNDGSKNYYVDSVKGRLTISRDNSKNTLYLQMNSLRPEDTAVYYCARGKVAGTIEYYYYGLDVWGQGTTVTVSS chain 2: AIQLTQSPSSLSASVGDRVSITCRASQGISSALAWYQQKPGKAPKLLIYDASSLESGVPSRFSGSGYGTDFTLTISSLQAEDFATYYCQQFNVYPWTFGQGTKVEIK | 0.661 | 1.11 | 0.00927 | 1.19 | 3.09 | > 10 | 0.00315
6 | BD57-0311 (protein) chain 1: QVQLVESGGGVVQPGRSLRLSCVGSGFTFNTYAMHWVRQSPGKGLEWVAVVSSDGSDKYYADSVRGRLTISRDNSKNTLYLQMNNLSAEDAAVYYCARDLYIAVAGKLHYYNGVDVWGQGTTVTVSS chain 2: DIQMTQSPSSVSASVGDRVTITCRASQDIANWLAWYQQKPGKAPKLLIYSASTLQSGVPSRFSGSGFGTDFTLSISSLQPEDFGTYYCQQAKSFPQTFGQGTVLEIK | 5.01 | 0.0141 | 5.3 | 0.00804 | > 10 | > 10 | 0.00292
7 | BD57-0284 (protein) chain 1: QVQLVESGGGVVRPGRSLRLSCAASGFTFSNYDMHWVRQAPGKGLEWLALISSDGSSKFYADSVKGRFTVSRDNSKNTLYLQMSTLRAEDTAVYYCARDPGLSTMVTYFQHWGQGTLVTVSS chain 2: DIQMTQSPSLLSASVGDRVTITCRASQSISSYLNWYQQKPGKAPKLLIYGASSLESGVPSRFSGSGSGTDFTLTISSLQPEDFATYYCQQSYTTLALTFGGGTKVEIK | 3.91 | 4.28 | 5.51 | 2.08 | 2.88 | 3.03 | > 10
8 | BD57-0307 (protein) chain 1: QVQLVQSGAEVRKPGASVKVSCKASGYTFTKYFLHWVRQAPGQGLEWMGIINPSAGSPDYAQKFQGRVTMTRDTSTNTVYMELSSLRSDDTAVYYCARSHHIVVAALGDYWGQGTLVTVSS chain 2: QTVVTQEPSLTVSPGGTVTLTCASSTGAVTSDYFPNWFQQKPGQAPTALIYSTGNKYSWTPARFSGSLLGGKAALALSGVQPEDEADYYCLLYYGGAWVFGGGTSLTVL | 0.36 | 0.552 | 0.0528 | 2.21 | > 10 | > 10 | 0.00358
9 | BD57-0294 (protein) chain 1: QITLKESGPTLVKPTQTLTLTCTFSGFSLSTSGVGVAWIRQPPGKALEWLALIYWDDKKHYSPSLQSRLTITKDTSKNQVVLMMTNMDPLDTGTYYCAHIYDFWSGYSGGWGQGSLVTVSS chain 2: DIQMTQSPSSLSASVGDRVTITCRASQTISSYLNWYQQKPGKAPKLLIYAAFNFQSGVPARFSGSGSGTDFTLTISSLQPEDFATYYCQQSYSFPWTFGQGTKVEIK | > 10 | > 10 | > 10 | > 10 | > 10 | > 10 | 3.38
10 | BD57-0343 (protein) chain 1: QVQMVESGGGVVQPGRSLRLSCVVSGFTFSTYGMHWVRQAPGKGLEWVAVMWYDGTNQDYTDSVKGRFTISRDNSKNTLYLEMNSLRVEDTAVYFCAREAYYYGSSGENYFQYYMDVWGKGTTVTVSS chain 2: QSALTQPRSVSGSPGQSVTISCTGTSSDVGGYNYVSWYQHHPGKAPKVMIYDVNKRPSGVPDRFSGSKSDNTASLTISGLQSEDEADYYCCSYAGTYTYVFGTGTTVSVL | 0.108 | 0.337 | 0.362 | 0.455 | > 10 | > 10 | 0.161
11 | BD57-0299 (protein) chain 1: QVQLVESGGGVVQPGRSLRLSCAASGFTFTNFDMHWVRQAPGKGLQWVAVISSGGNNKYYEDSVKGRFTLSRDNAKNTLYLQMNSLRVEDTAIYYCAKEVGISDNAFKPDGFDIWGQGTLVTVSS chain 2: SYVLTQAPSVSVAPGKTARITCGGESIGSKSVHWYQQKPGQAPVLLITYDSDRPSGIPERFSGSNSGNTATLTISGVEAGDEADYYCQVWDIGVVFGGGTKLTVL | 3.59 | 4.11 | 5.27 | 3.07 | > 10 | 2.47 | > 10
12 | BD57-0324 (protein) chain 1: EVQVVESGGGLVQPGRSLRLSCAASGFTFDDYAMHWVRQAPGKGLEWVSGTSWNSGTIGYADSVKGRFIISRDNAKNSLYLQMTRLRDDDTALYYCVKDKKTSYGSGSYRWDASFYFDHWGQGTLVIVSS chain 2: DIQMTQSPSSLSASVGDRVTITCQASQDINNYLNWYQQKPGKAPSLLIYDASNLETGVPSRFSGSGSGTDFTFTISSLQPEDIATYYCQQFDDPPLTFGGGTKVEIK | 0.105 | 0.0851 | 0.0924 | 0.159 | > 10 | 0.286 | 0.032

Source: the supplement of paper PMC9931576
